Laboratory results reported in the supplement of paper PMC9931576.
Changes are numbered by the printed parent chain. Human monoclonal antibodies against the spike receptor-binding domain (heavy:light variable regions). IC50 against pseudoviruses bearing the spike of naturally observed variants; lower = stronger; >10 µg/ml means not reached at the top dose. No active / inactive call. The stated detection limit is 0.0005 µg/ml; values near or below 0.001 µg/ml lie at the floor of the assay.

B1: BD55-5794 (protein)
chain 1: EVHLVESGGGLVQPGGSLRLSCAGSGFTFSSYWMSWVRQAPGKGLEWVANINQDGSEKNYVDSVKGRFTISRDNAKNSLSLQMNSLRAEDTAVYFCARSITLGGLIIIPPEYFDYWGQGTLVTVSS
chain 2: SYELTQPPSVSVSPGQTARITCSGDAFPNQYAHWYQQKPGQAPVVVIYKDSERSSGIPERFSGSSSGTTVTLTISGVQAEDEADYYCQSADSSGINYVFGAGTKVTVL
B2: BD55-1096 (protein)
chain 1: QVQLVESGGGVVRPGRSLRVSCAASGFSFSNYGMNWVRQAPGKGLEWVAMIWFDGSRKEYVDSVKGRFTISRDNPKNTLYLQMNSLRGDDTAVYYCAKSGRFYDSSGYEGLDALDLWGQGTMVTVSS
chain 2: IQLTQSPSSLSASVGDRVTITCRASQGIGRALAWYQQKPGKAPELLIYEASSLQTGVPSRFSGSGSGTDFTLSISSLQPEDFGTFFCQQFNYYPRTFGQGTKVEIK
B3: BD55-5810 (protein)
chain 1: EVQLVESGGGLVQPGRSLRLSCKTSGFIVGDHCMSWVRQAPGKGLEWVGFMRSNTLGGTAEYAASVEGRFTVSRDDSKGIAYLQMNSLKTEDTAVYYCSRMGIMVSTYLGYYYAMDVWGQGTTVTVS
chain 2: DVQMTQSPSTLSASVGDRVTITCRANESVSNWLAWYQQKPGKAPKLLIYAASSLESGAPSRFSGTGSGTEFTLTINSLQADDFATYYCQQYNGFMYTFGQGTKLEIK
B4: BD55-5830 (protein)
chain 1: QVQLVQSGAEVKKPGASVKVSCKASGYTFTNYDINWVRQATGQGPEWMGWMNPDSGDTGYAHKFQGRVAMTRDTSINTAYMELSSLRSEDTAVYYCAITSSPGGFSVKSYYYYFVLDVWGQGTTVTVSS
chain 2: DIQMTQSPSSLSASVGDRVTITCRASQSISTYLNWYQQKPGKAPNLLIYSASSLQSGVPSRFSGSGSGTDFILTISSLQPEDFATYYCQQSYTTPPTFGQGTKVEIK
B5: BD55-5832 (protein)
chain 1: EVQLVESGGGLVKPGESLRLSCAASASTFTSYYMNWVRQAPGKGLEWVSSISSTSSYIYYADSVKGRFTISRDNAKASVSLQMNRLRVDDTAMYYCAGDPGYDFSTGYYQAIDSWGQGTLVTVSS
chain 2: QPVLTQSSSASASLGSSVKLTCTLSSGHGNYILAWHQQQPGKAPRFLMKVEVSGNYFRGSGVPDRFSGSASGADRYLTISNLQSGDEATYYCDTWDSNTRLIGGGTKLTVL
B6: BD55-5839 (protein)
chain 1: QLQLQESGPGLVKPSETLSLTCTVSGGSISSTSYSWAWIRQPPGKGLEWIGSINYSGSASYNPSLKIRVTTSVDTSKNQFSLKLSSVTAADTAVYYCARHTGDYEFDYWGQGTLVTVSS
chain 2: DIQMTQSPSTLSASVGDRVTITCRASQSISRWLAWYQQKPGKAPKLLIYKASILESGVPSRFSGSGSGTEFTLTISSLQPDDFASYYCQQYNSYSTFGGGTKVEIK
B7: BD55-5853 (protein)
chain 1: EVHLVESGGGLVQPDRSLRLSCAASGFTFDDYSMHWVRQAPGKGLEWVSSINWNSVRIDYADSVKGRFTISRDNAKNSLYLQMNSLRAEDTALYYCAKPLSSGWTFSGTTDDAFEIWGQGTMVTVSS
chain 2: QSALTQPPSVSGSPGQSVTISCTGTSSDVGSYHRVSWYQQPPGTAPKLIIYEVSNRPSGVPDRFSGSKSGNTASLTISGLQAEDEADYYCGSYTITNTWVFGGGTKLTVL
B8: BD55-5856 (protein)
chain 1: EVQLLESGGGLVQRGGSLRLSCAASGFTISSYGMSWVRQAPGKGLEWVSSISGSGGNTYYADSVQGRITISRDNSKNTLYLQMNSLRAEDTAVYFCAREQLWFGEHTFDYWGQGTLVTVSS
chain 2: DIQLTQSPSFLSASVGDRVTISCRASPGISSYLAWYQQKPGKAPKLLIYAASSLQSGVPSRFSGSGSGTEFTLTISSLQPEDFATYYCQQLNSYPPITFGQGTRLEIK
B9: BD55-5865 (protein)
chain 1: EVQLVESGGGLVKPGGSLRLSCAASGFSFTTHTMSWVRQALGKGLEWVSSIDGRTGFTYYADSVKGRFTISRDNAKNSLYLQISSLRAEDTAVYYCARDENLVRGFSGYEPTLYYGMDVWGQGTTVTVSS
chain 2: QSVLTQPPSVSGAPGQRVTISCTGSGSNIGAGYDVHWYQQLPGTAPKLLIYANNNRPSGVPDRFSGSKSGTSASLAITGLQAEDEADYYCQSYDSGSLSGSKVFGGGTKLTVL
B10: BD55-5876 (protein)
chain 1: VQLVQSGAELKKPGASVKVSCKASGYIFSNFGISWVRQAPGQGLEWMGWISTSNGNTKYAQNVQGRVTMTIDKSSSTAFMELTSLRSDDTAFYYCARDGEQLLQSYFDYWGQGTLVTVSS
chain 2: SYVLTQPPSVSVAPGETARITCGGVDIGSKSVHWYQQMPGQAPVLVIYYDGDRPSGIPERFSGSNSGNTATLTISRVEAGDEADYYCQVWVGSSDHHWVFGGGTKLTVL
B11: BD55-5878 (protein)
chain 1: EVQLVESGGGVVQPGGSLRLSCVASGFIFDDYAMHWVRQAPGKGLEWVSLISGDGLSTYYADSVRGRFTISRDSSKKSLYLQMNSLRIEDTALYYCAKDTTYFDFLTGSGMDVWGQGTTVTVS
chain 2: NFMLTQPHSVSESPGKTVTISCTRSSGNIASNYVHWYQQRPGSAPTTVIYEDNQRPSGVPDRFSGSIDSSSNSASLTISGLTTEDEADYYCQSFESNNRNWVFGGGTKLTVL
B12: BD55-5885 (protein)
chain 1: EVQLVESGGGLVQPGGSLRLSCVASGFTFSSYWMSWVRQAPGKGLEWVANMKQDGSEKYYGDSVKGRFTISRDNAKNSLYLQLNSLGAEDTAVYYCARDPGLSVRGGDCYFDYWGQGTLVTVSS
chain 2: B1 chain 2 with A26T, H33Y, V45L, S54P, I95A, Y97V, A101G, V105L

What follows are binders tested against SARS-CoV-2 Omicron BA.1 spike pseudovirus (assay: pseudovirus neutralization IC50; higher = weaker neutralization).
Experimental: (§1)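 Single-round VSV luciferase pseudovirus mixed with antibody dilutions for 1 h and put on Huh-7 cells for about a day; IC50 from the dose curve.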

| Binder | pseudovirus neutralization IC50 [µg/mL] |
| --- | --- |
| B1 | > 10 |
| B2 | > 10 |
| B3 | > 10 |
| B4 | > 10 |
| B5 | > 10 |
| B6 | > 10 |
| B7 | > 10 |
| B8 | > 10 |
| B9 | > 10 |
| B10 | > 10 |
| B11 | > 10 |
| B12 | > 10 |

These binders were tested against SARS-CoV-2 Omicron BA.2 spike pseudovirus in the same assay as above.
Experimental: as §1

| Binder | pseudovirus neutralization IC50 [µg/mL] |
| --- | --- |
| B1 | > 10 |
| B2 | > 10 |
| B3 | > 10 |
| B4 | > 10 |
| B5 | > 10 |
| B6 | > 10 |
| B7 | > 10 |
| B8 | > 10 |
| B9 | > 10 |
| B10 | > 10 |
| B11 | > 10 |
| B12 | > 10 |

Each binder was assayed against SARS-CoV-2 Omicron BA.2.75 spike pseudovirus in the same assay as above.
Experimental: as §1

| Binder | pseudovirus neutralization IC50 [µg/mL] |
| --- | --- |
| B1 | > 10 |
| B2 | > 10 |
| B3 | > 10 |
| B4 | > 10 |
| B5 | > 10 |
| B6 | > 10 |
| B7 | > 10 |
| B8 | > 10 |
| B9 | > 10 |
| B10 | > 10 |
| B11 | > 10 |
| B12 | > 10 |

What follows are binders tested against SARS-CoV-2 Omicron BA.5 spike pseudovirus in the same assay as above.
Experimental: as §1

| Binder | pseudovirus neutralization IC50 [µg/mL] |
| --- | --- |
| B1 | > 10 |
| B2 | > 10 |
| B3 | > 10 |
| B4 | > 10 |
| B5 | > 10 |
| B6 | > 10 |
| B7 | > 10 |
| B8 | > 10 |
| B9 | > 10 |
| B10 | > 10 |
| B11 | > 10 |
| B12 | > 10 |

These binders were tested against SARS-CoV-2 Omicron BQ.1.1 spike pseudovirus in the same assay as above.
Experimental: as §1

| Binder | pseudovirus neutralization IC50 [µg/mL] |
| --- | --- |
| B1 | > 10 |
| B2 | > 10 |
| B3 | > 10 |
| B4 | > 10 |
| B5 | > 10 |
| B6 | > 10 |
| B7 | > 10 |
| B8 | > 10 |
| B9 | > 10 |
| B10 | > 10 |
| B11 | > 10 |
| B12 | > 10 |

What follows are binders tested against SARS-CoV-2 Omicron XBB spike pseudovirus in the same assay as above.
Experimental: as §1

| Binder | pseudovirus neutralization IC50 [µg/mL] |
| --- | --- |
| B1 | > 10 |
| B2 | > 10 |
| B3 | > 10 |
| B4 | > 10 |
| B5 | > 10 |
| B6 | > 10 |
| B7 | > 10 |
| B8 | > 10 |
| B9 | > 10 |
| B10 | > 10 |
| B11 | > 10 |
| B12 | > 10 |

The binders below were run against SARS-CoV-2 early D614G spike pseudovirus in the same assay as above.
Experimental: as §1

| Binder | pseudovirus neutralization IC50 [µg/mL] |
| --- | --- |
| B1 | 0.921 |
| B2 | 0.037 |
| B3 | 0.174 |
| B4 | 1.27 |
| B5 | 0.0117 |
| B6 | 0.958 |
| B7 | 0.336 |
| B8 | 0.00186 |
| B9 | 0.0301 |
| B10 | > 10 |
| B11 | 0.0707 |
| B12 | > 10 |
